Pooled drug test results. Numbers come from NIAID ChemDB, via PubChem.

Common to all: whole-cell or culture tests; organism: Hepatitis C virus; measure: EC50

Two numbers with a dash give a range or band.

| SMILES | changes | method | conditions | strain or isolate | cells | result |
|---|---|---|---|---|---|---|
| CCS(=O)(=O)NC(=O)c1c(-c2ccc[nH]c2=O)c2c3occc3ccc2n1Cc1ccccc1F | - | replicon | - | - | - | <0.5 µM |
| O=C(Nc1ccc(C2SC(=Nc3ccc(N4CCOCC4)cc3)N(Cc3ccccn3)C2=O)cc1)[C@H]1CCCN1C(=O)Cc1ccc(C(F)(F)F)cc1 | - | replicon | - | - | Huh7 | 1–5 µM |
| O=C(N/N=C/c1ccccc1OS(=O)(=O)c1ccc(C(F)(F)F)cc1)c1c(F)cccc1C(F)(F)F | - | replicon | - | - | Huh7 | <5 µM |
| CN1CCN(c2cc3c(cc2F)c(=O)c(-c2noc(Cc4ccc(F)cc4F)n2)cn3Cc2ccc(Cl)cc2)CC1 | - | replicon | - | 1b | - | <10 µM |
| Fc1ccc(CNc2nc(NCCN3CCOCC3)c3nc(-c4ccc(F)cc4)ccc3n2)cc1 | - | replicon | - | - | - | <0.1 µM |
| O=C(O)c1c(-c2ccc[nH]c2=O)c2c3occc3c(F)cc2n1Cc1cc([N+](=O)[O-])ccc1F | - | replicon | - | - | - | <0.5 µM |
| CN(C)c1ccc(CC(=O)N/N=C/c2ccccc2OS(=O)(=O)c2ccc(C(F)(F)F)cc2)cc1 | - | replicon | - | - | Huh7 | <5 µM |
| O=C(N[C@@H](C(=O)N1CCC[C@H]1c1ncc(-c2ccc(-c3ccc(-c4cnc([C@@H]5CCCN5C(=O)[C@H](NC(=O)C5CC5)c5ccccc5)s4)cc3)cc2)s1)c1ccccc1)C1CC1 | T24A | luciferase / reporter gene | - | genotype 2a | Huh7.5 | 0.0162 µM |
| C[C@@H](NC(=O)OCc1ccccc1)C(=O)Nc1ccc(C2SC(=Nc3cccc(F)c3)N(CC3CCCO3)C2=O)cc1 | - | replicon | - | - | Huh7 | 0.1–1 µM |
| CC1CCC(C(=O)N(c2cc(-c3ccc(NC(=O)c4ccnn4C)cc3)sc2C(=O)O)C(C)C)CC1 | - | replicon | - | 1a | - | >0.5 µM |
| CC(C)(C)OC(=O)N1CCC(NS(=O)(=O)c2cc(-c3ccc4nc(NCc5ccc(S(N)(=O)=O)cc5)nc(NCC(F)(F)F)c4n3)ccc2F)CC1 | - | replicon | - | - | - | <0.1 µM |
| O=C(Nc1ccc(C2SC(=Nc3ccc(N4CCOCC4)cc3)N(Cc3ccccn3)C2=O)cc1)[C@H]1CCC(=O)N1C(=O)OCc1ccccc1 | - | replicon | - | - | Huh7 | <0.1 µM |
| O=C(O)c1c(-c2ccc[nH]c2=O)c2c3occc3c(F)cc2n1Cc1cc(=O)[nH]cc1Br | - | replicon | - | - | - | <0.5 µM |
| COc1ccc(CCN2C(=O)C(c3ccc(NC(=O)[C@H]4CCCN4C(=O)OCc4ccccc4)cc3)SC2=Nc2cccc(F)c2)cc1OC | - | replicon | - | - | Huh7 | 1–5 µM |
| CC(C)Oc1nc(N)nc2ccc(-c3ccc(NC(=O)C(C)C)cc3)nc12 | - | replicon | - | - | Huh7 | <0.3 µM |
| CS(=O)(=O)NC(=O)c1c(-c2ccc[nH]c2=O)c2c3occc3c(F)cc2n1Cc1ccnc(N)c1 | - | replicon | - | - | - | <0.5 µM |
| CCCCCCCCOc1ccc(N(C(=O)COC(C)=O)c2nc(-c3ccc(F)c(F)c3)cs2)cc1 | - | - | - | - | - | <1 µM |
| CS(=O)(=O)c1ccc(CC(=O)N/N=C/c2ccccc2OS(=O)(=O)c2ccc(C(F)(F)F)cc2)cc1 | - | replicon | - | - | Huh7 | >50 µM |
| CN1CCN(c2cc3c(cc2F)c(=O)c(-c2noc(C(CC(=O)O)c4ccccc4)n2)cn3Cc2ccc(Cl)cc2)CC1 | - | replicon | - | 1b | - | >10 µM |
| O=C(O)c1c(-c2ccc[nH]c2=O)c2c3occc3c(F)cc2n1Cc1cc2ccccc2nc1Cl | - | replicon | - | - | - | <0.5 µM |
| CC1CCC(C(=O)N(c2cc(-c3ccc(NC(=O)c4cnn(C)c4)cc3)sc2C(=O)O)C(C)C)CC1 | - | replicon | - | 1a | - | <0.5 µM |
| COc1ccc2c(=O)c(-c3noc(Cc4ccccc4)n3)cn(Cc3ccc(C(F)(F)F)cc3)c2c1 | - | replicon | - | 1b | - | <10 µM |
| O=C(O)c1sc(-c2ccc(-c3cc4ncccn4n3)cc2)cc1N(C(=O)c1ccc(Cl)cc1Cl)C1CCOC1 | - | luciferase / replicon | - | 1a | - | 0.01–0.05 µM |
| O=c1c(-c2noc(Cc3ccccc3)n2)cn(Cc2ccc(C(F)(F)F)cc2F)c2cc(-n3ccnc3)c(F)cc12 | - | replicon | - | 1b | - | <10 µM |
| CC(C)N(C(=O)c1ccc(Cl)cc1Cl)c1cc(-c2ccc(-c3cn4ccsc4n3)cc2)sc1C(=O)O | - | replicon / ELISA | - | 1a | - | 0.1–0.5 µM |
| NS(=O)(=O)c1cccc(CNc2nc(NCC(F)(F)F)c3nc(-c4ccc(F)cc4)ccc3n2)c1 | - | replicon | - | - | - | <0.1 µM |
| COc1cccc(CC(=O)N/N=C/c2cc(Br)ccc2OS(=O)(=O)c2ccc(C(F)(F)F)cc2)c1 | - | replicon | - | - | Huh7 | <5 µM |
| CCOc1nc(N)nc2c1ncn2[C@@H]1O[C@@H]2COP(=O)(OC(C)C)O[C@H]2[C@@]1(C)F | - | replicon | 85 d | 2a | - | 1.94 µM |
| CC(C)(O)CNc1nc(NCc2ccc(F)cc2)nc2ccc(-c3ccc(F)cc3)nc12 | - | replicon | - | - | - | <0.1 µM |
| CC(C)N(C(=O)c1ccc(Cl)cc1F)c1cc(-c2ccccc2)sc1C(=O)O | - | replicon / ELISA | - | 1a | - | 1–5 µM |
| CCNc1nc(NCc2ccc(F)cc2)nc2ccc(-c3ccc(F)cc3)nc12 | - | replicon | - | - | - | <0.1 µM |
| CC(C)N=C1SC(c2ccc(NC(=O)[C@@H](C)NC(=O)[C@H](O)c3ccccc3)cc2)C(=O)N1Cc1ccccn1 | - | replicon | - | - | Huh7 | <0.1 µM |
| CC1CCC(C(=O)N(c2cc(-c3ccc(NC(=O)c4ccco4)nc3)sc2C(=O)O)C(C)C)CC1 | - | replicon | - | 1a | - | <0.5 µM |
| O=C(Cc1ccc(F)c(Cl)c1)N/N=C/c1ccccc1OS(=O)(=O)c1ccc(C(F)(F)F)cc1 | - | replicon | - | - | Huh7 | <5 µM |
| CCOc1nc(N)nc2ccc(-c3cccc(NS(=O)(=O)CC)c3)nc12 | - | replicon | - | - | Huh7 | <0.3 µM |
| Cc1cc(Br)ccc1C(=O)N(c1cc(-c2ccc(-c3cn4ccccc4n3)cc2)sc1C(=O)O)C(C)C | - | replicon / ELISA | - | 1a | - | 0.1–0.5 µM |
| CS(=O)(=O)NC(=O)c1c(-c2ccc[nH]c2=O)c2c3occ(Cl)c3ccc2n1Cc1ccccc1F | - | replicon | - | - | - | <0.5 µM |
| O=C(Cn1c(Br)nc(Cl)c1Cl)N/N=C/c1ccccc1OS(=O)(=O)c1ccc(C(F)(F)F)cc1 | - | replicon | - | - | Huh7 | >50 µM |
| CCCCCOc1ccc(N(C)c2nc(-c3cccnc3)cs2)cc1C(F)(F)F | - | - | - | - | - | <1 µM |
| Fc1ccc(-c2ccc3nc(NCCn4cncn4)nc(NCC(F)(F)F)c3n2)cc1 | - | replicon | - | - | - | <0.1 µM |
| CCN(C(=O)C1CCC(C)CC1)c1cc(-c2ccc(NC(=O)c3cn(C)cn3)cc2)sc1C(=O)O | - | replicon | - | 1b | - | <0.5 µM |
| CCCCCOc1ccc(N(C(=O)C(OC(C)=O)c2ccccc2)c2nc(-c3cccnc3)cs2)cc1C(F)(F)F | - | - | - | - | - | <1 µM |
| Cc1cc2ccc3c(c(-c4ccc[nH]c4=O)c(C(=O)O)n3Cc3cc(F)ccc3F)c2o1 | - | replicon | - | - | - | >1.5 µM |
| O=c1c(-c2ncc(Cc3ccccc3)o2)cn(Cc2ccc(Cl)cc2)c2ccc(OCCN3CCOCC3)cc12 | - | replicon | - | 1b | - | <10 µM |
| CCCCCOc1ccc(N(C(=O)COC(C)=O)c2nc(-c3ccc(F)c(F)c3)cs2)cc1C(F)(F)F | - | - | - | - | - | <1 µM |
| Cc1nc(C(=O)Nc2ccc(-c3cc(N(C(=O)C4CCC(C)CC4)C(C)C)c(C(=O)O)s3)cc2)cs1 | - | replicon | - | 1b | - | <0.5 µM |
| COc1cccc(CC(=O)N/N=C/c2ccccc2OS(=O)(=O)c2ccc(Oc3ccc(F)cc3)cc2)c1 | - | replicon | - | - | Huh7 | >50 µM |
| CCOc1nc(N)nc2ccc(-c3cccc(NS(=O)(=O)C4CCS(=O)(=O)C4)c3)nc12 | - | replicon | - | - | Huh7 | <0.3 µM |
| CCCc1ccc(S(=O)(=O)Oc2ccccc2/C=N/NC(=O)Cc2cccc(OC)c2)cc1 | - | replicon | - | - | Huh7 | <5 µM |
| CC(c1ccccc1)c1nc(-c2cn(Cc3ccc(C(C)(C)C)cc3)c3cc(N4CCCNCC4)c(F)cc3c2=O)no1 | - | replicon | - | 1b | - | <2 µM |
| O=C(O)/C=C/c1ccc(NC(=O)C2(NC(=O)c3ccc4c(c3)nc(-c3ccoc3)n4C3CCCCC3)CCC2)cc1 | - | replicon | - | 1b M423T | - | 2.4 µM |
| CC(C)N(C(=O)c1ccc(Cl)cc1Cl)c1cc(-c2ccc(-c3cc4ncccc4o3)cc2)sc1C(=O)O | - | luciferase / replicon | - | 1a | - | 0.05–0.1 µM |
| O=C(Cc1ccc(F)cc1)N/N=C/c1ccccc1OS(=O)(=O)c1ccc(C(F)(F)F)cc1 | - | replicon | - | - | Huh7 | <5 µM |

A second listing of 5 rows from above:

SMILES	changes	method	conditions	strain or isolate	cells	result
O=C(Nc1ccc(C2SC(=Nc3ccc(N4CCOCC4)cc3)N(Cc3ccccn3)C2=O)cc1)[C@H]1CCC(=O)N1C(=O)OCc1ccccc1	-	replicon	-	-	Huh7	<0.1 µM
O=c1c(-c2noc(Cc3ccccc3)n2)cn(Cc2ccc(C(F)(F)F)cc2F)c2cc(-n3ccnc3)c(F)cc12	-	replicon	-	1b	-	<10 µM
CCOc1nc(N)nc2ccc(-c3cccc(NS(=O)(=O)C4CCS(=O)(=O)C4)c3)nc12	-	replicon	-	-	Huh7	<0.3 µM
CC(C)N(C(=O)c1ccc(Cl)cc1F)c1cc(-c2ccccc2)sc1C(=O)O	-	replicon / ELISA	-	1a	-	1–5 µM
COc1cccc(CC(=O)N/N=C/c2ccccc2OS(=O)(=O)c2ccc(Oc3ccc(F)cc3)cc2)c1	-	replicon	-	-	Huh7	>50 µM

ECn is the concentration giving n% inhibition of infection, replication or growth. Lines come from different laboratories, so protocols vary. Blank or dashed fields: not listed here.